The entries are a selection whose mix differs from that of the whole data set. Inconclusive results are not listed. The source made the active and inactive calls. Calls follow the shape of the dose curve; as a rule, active = well fitted inhibition curve with a large enough effect; inconclusive = small, poorly fitted or top-dose-only effect; inactive = flat fitted curve, though single readings scatter.

By UniProt entry, the sequences of proteins in these tests, tags left out. Where a name states a change or a piece, a line headed by the entry shows the natural chain unless it says otherwise.
UniProt P00811: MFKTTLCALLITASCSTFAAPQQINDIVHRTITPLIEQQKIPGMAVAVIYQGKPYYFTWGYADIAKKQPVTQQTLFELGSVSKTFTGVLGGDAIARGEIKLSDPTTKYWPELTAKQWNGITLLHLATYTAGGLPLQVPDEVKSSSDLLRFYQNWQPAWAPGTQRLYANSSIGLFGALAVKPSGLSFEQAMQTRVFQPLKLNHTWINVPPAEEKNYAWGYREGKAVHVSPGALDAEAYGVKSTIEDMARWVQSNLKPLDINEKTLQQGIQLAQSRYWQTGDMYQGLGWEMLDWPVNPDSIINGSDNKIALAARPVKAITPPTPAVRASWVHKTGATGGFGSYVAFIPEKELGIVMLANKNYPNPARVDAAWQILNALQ

This assay deals with Beta-lactamase (Escherichia coli (strain K12)) (UniProt P00811). Put plainly: qHTS Inhibitors of AmpC Beta-Lactamase (assay with detergent).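 Also: 0% = no-compound wells and -100% = no-enzyme wells; nearly all actives have a fitted effect of over 25% in size.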 To be noted: AmpC hydrolysis of nitrocefin, absorbance 480 nm, 0.01% Triton; at 114 µM (top of the series). A general note: qHTS replaces the single test concentration by a dilution series.
As for `O=C(/C=C/c1ccccc1)OC1CN2CCC1CC2` (stereo not given), the activity change, negative = inhibition was inactive: 4.89%.

Consider `CN(C)C1(CNC(=O)c2ccc(S(C)(=O)=O)cc2)CCCCC1`, for which the activity change, negative = inhibition is inactive: 2.01%.

Regarding `Cc1nn(-c2ccccc2)c2c1P(=O)(N1CCOCC1)N(C)C(c1ccccc1)=N2` (stereo not given), the activity change, negative = inhibition was inactive: 0%.

With `CC1CCC(C(C)C)C(OP(=O)(Nc2ccccn2)c2ccccc2)C1` (stereo not given), the activity change, negative = inhibition is inactive: 5.51%.

For the compound `Cc1ccc(C(=O)OC2CN3CCC2CC3)cc1` (stereo not given), the activity change, negative = inhibition was inactive: -3.4%.

As for `O=[As](O)(c1cccs1)c1cccs1`, the activity change, negative = inhibition was inactive: -2.99%.

Turning to `Cc1ccc(OCC(=O)OC2CN3CCC2CC3)cc1` (stereo not given), the activity change, negative = inhibition is inactive: 0.408%.

In the case of `O=P1(Nc2ccc(Br)cn2)COc2ccccc2OC1`, the activity change, negative = inhibition is inactive: 15.3%.

In the case of `NS(=O)(=O)c1cccc(NC(=O)COC(=O)C(O)(c2ccccc2)c2ccccc2)c1`, the activity change, negative = inhibition was inactive: 1.57%.

As for `Nc1cccc([As](=O)(O)c2ccccc2)c1`, the activity change, negative = inhibition was inactive: -17.1%.

Take `O=P1(Nc2ncccn2)COc2ccccc2OC1`: the activity change, negative = inhibition is inactive: -2.41%.

`Clc1n[nH]nc1-c1nn[nH][15n]1`: the activity change, negative = inhibition was inactive: 3.73%.

As to `CC(C)(C)C(=O)NC(Sc1ncccn1)C(Cl)(Cl)Cl` (stereo not given), the activity change, negative = inhibition is inactive: -0.4%.

For `CCOP(=O)(Nc1ccc(C)cn1)OCC`, the activity change, negative = inhibition is inactive: 2.55%.

In the case of `O=P1(Nc2ccccn2)COc2ccccc2OC1`, the activity change, negative = inhibition was inactive: 4.49%.

On to `CCC1=CC2Cc3nc4ccc(Cl)cc4c(N)c3C(C1)C2` (stereo not given), for which the activity change, negative = inhibition is inactive: -18.3%.

As to `CCOP(=O)(NC(=NC(C)c1ccccc1)NC(C)c1ccccc1)OCC` (stereo not given), the activity change, negative = inhibition was inactive: -4.67%.

As to `O=[As](O)(c1ccccc1Br)c1ccccc1Br`, the activity change, negative = inhibition is inactive: -12.7%.

On to `COc1ccccc1CNC(=O)COC(=O)C(O)(c1ccccc1)c1ccccc1`, for which the activity change, negative = inhibition was inactive: 0%.

Consider `Cc1cccc(OCC(=O)OC2CN3CCC2CC3)c1` (stereo not given), for which the activity change, negative = inhibition is inactive: -7.38%.

As for `O=[As](O)(c1cccc(O)c1)c1cccc(O)c1`, the activity change, negative = inhibition was inactive: 5.95%.

For `O=[As](O)(O)c1cccnc1`, the activity change, negative = inhibition was inactive: -6.56%.

For `COc1cc(C(=O)NCC2(N3CCOCC3)CCCCC2)cc(Cl)c1OC(C)C`, the activity change, negative = inhibition is inactive: -0.478%.

For the compound `CS(=O)(=O)c1ccc(Cl)c(NC(=O)COC(=O)C(O)(c2ccccc2)c2ccccc2)c1`, the activity change, negative = inhibition is inactive: 8%.

Turning to `O=C(OC1CN2CCC1CC2)c1ccc(Cl)cc1` (stereo not given), the activity change, negative = inhibition was inactive: 2.2%.

On to `COc1cc(C2NCCC3(OCCO3)C2(C)C)cc(OC)c1OC` (stereo not given), for which the activity change, negative = inhibition is inactive: 1.7%.

Take `CCOP(=O)(Nc1cccc2ccccc12)OCC`: the activity change, negative = inhibition was inactive: -11%.

Take `CCCOP(=S)(Nc1nc(N)cc(=O)[nH]1)OCCC`: the activity change, negative = inhibition is inactive: -8.31%.

Take `Nc1cccc2c([As](=O)(O)O)cccc12`: the activity change, negative = inhibition was inactive: 8.79%.

For `Cc1ccc(NCCc2c([N+](=O)[O-])cc([N+](=O)[O-])cc2[N+](=O)[O-])cc1`, the activity change, negative = inhibition is inactive: -11.2%.

Regarding `Nc1ccccc1[As](=O)(O)c1ccccc1`, the activity change, negative = inhibition is inactive: -10.4%.

In the case of `O=C(O)COc1ccc([As](=O)(O)O)cc1[N+](=O)[O-]`, the activity change, negative = inhibition was inactive: 4.1%.

On to `CS(=O)(=O)c1cc([N+](=O)[O-])c2no[n+]([O-])c2c1`, for which the activity change, negative = inhibition was inactive: -9.62%.

For the compound `CCOP1(=S)c2c(C)nn(CCC#N)c2N=C(c2ccccc2F)N1C` (stereo not given), the activity change, negative = inhibition is inactive: 1.83%.

As for `O=P(Nc1nccs1)(Oc1ccccc1)Oc1ccccc1`, the activity change, negative = inhibition was inactive: 1.22%.

`O=P(Nc1nccs1)(c1ccccc1)c1nc2ccccc2s1` (stereo not given): the activity change, negative = inhibition was inactive: -14.7%.

For the compound `O=[N+]([O-])c1ccc2c(c1)nnn2O`, the activity change, negative = inhibition was inactive: -4.19%.

Consider `N#CCCN(C(=O)COC(=O)C(O)(c1ccccc1)c1ccccc1)c1ccc(F)cc1`, for which the activity change, negative = inhibition was inactive: 0%.

For the compound `CCOP1(=S)c2c(C)nn(CCC#N)c2N=C(c2ccc(F)cc2)N1C` (stereo not given), the activity change, negative = inhibition is inactive: -3.76%.

Take `CN(C(=O)Cc1ccccc1)[C@@H]1CC[C@]2(CCCO2)C[C@H]1N1CCCC1`: the activity change, negative = inhibition is inactive: -2.08%.

`NC(=O)Nc1ccc([As](=O)(O)O)cc1`: the activity change, negative = inhibition is inactive: 0.3%.

Consider `Cc1ccc2nc3c(c(C)c2c1)CC(C(Cl)Cl)S3` (stereo not given), for which the activity change, negative = inhibition is inactive: -12.6%.

`Cc1ccc(OP(=O)(Nc2ccc([N+](=O)[O-])cn2)Oc2ccc(C)cc2)cc1`: the activity change, negative = inhibition was inactive: -9.45%.

Consider `C[As](=O)(O)c1cccc(C(=O)O)c1`, for which the activity change, negative = inhibition is inactive: -11%.

Take `O=[As](O)(c1ccc(O)cc1)c1ccccc1O`: the activity change, negative = inhibition was inactive: 0.0575%.

For `COc1cc(C(=O)NCC2(N3CCOCC3)CCCCC2)ccc1OCC(C)C`, the activity change, negative = inhibition was inactive: -0.871%.

Consider `CC(C)NC(=O)NP(=O)(Oc1ccccc1)Oc1ccccc1`, for which the activity change, negative = inhibition was inactive: -2.1%.

Turning to `CCN(CC)C(=S)SC(NC=O)C(Cl)(Cl)Cl` (stereo not given), the activity change, negative = inhibition was inactive: 0.399%.

In the case of `O=[N+]([O-])c1cc([N+](=O)[O-])c(-c2ccn[nH]2)s1`, the activity change, negative = inhibition is inactive: 1.31%.

With `CC(C)c1ccc(OP(=O)(Nc2ccccn2)Oc2ccccc2F)cc1` (stereo not given), the activity change, negative = inhibition was inactive: 2.31%.

Consider `ClCCSc1nnc(-c2cccnc2)o1`, for which the activity change, negative = inhibition was inactive: 2.97%.

Turning to `COc1ccc2nc(NP(=O)(c3ccccc3)c3ccccc3)sc2c1`, the activity change, negative = inhibition was inactive: -16.6%.

Regarding `COc1cc(I)ccc1[As](=O)(O)O`, the activity change, negative = inhibition is inactive: -2.64%.

Turning to `O=C(OC1CN2CCC1CC2)C12CC3CC(CC(C3)C1)C2` (stereo not given), the activity change, negative = inhibition was inactive: -13.3%.

Regarding `Cc1cc(=O)[nH]c(N[N+](=O)[O-])n1`, the activity change, negative = inhibition is inactive: -11.4%.

`Cc1c2c(nc3ccccc13)SC(C(Cl)Cl)C2` (stereo not given): the activity change, negative = inhibition is inactive: -4.4%.

In the case of `COc1ccc(N/C(=N/P(=O)(N2CCOCC2)N2CCOCC2)N2CCOCC2)cc1`, the activity change, negative = inhibition is inactive: 0.511%.

`O=C(COc1ccccc1)OC1CN2CCC1CC2` (stereo not given): the activity change, negative = inhibition is inactive: -3.58%.

As to `O=C(Nc1ccncc1[N+](=O)[O-])c1ccc([N+](=O)[O-])cc1[N+](=O)[O-]`, the activity change, negative = inhibition was inactive: -9.9%.

For `COP1(=S)c2c(C)nn(CCC#N)c2N=C(c2ccc(F)cc2)N1C` (stereo not given), the activity change, negative = inhibition is inactive: -5.06%.

`CCC(C)N(CC(C)C)C(=S)SC(NC(C)=O)C(Cl)(Cl)Cl` (stereo not given): the activity change, negative = inhibition is inactive: -7.34%.

For the compound `CCOC(=O)c1ccc(NC(=O)C(C)(CCl)SC)cc1` (stereo not given), the activity change, negative = inhibition is inactive: -1.98%.

As to `O=C(OC1CN2CCC1CC2)c1cccc([N+](=O)[O-])c1` (stereo not given), the activity change, negative = inhibition was inactive: -0.664%.

Turning to `CCCCOc1ccc(C(=O)NCC2(N3CCCCC3)CCCCC2)cc1OC`, the activity change, negative = inhibition was inactive: -2.33%.

For the compound `Cc1cc(SC(NC(=O)c2ccccc2)C(Cl)(Cl)Cl)nc(C(C)C)n1` (stereo not given), the activity change, negative = inhibition was inactive: -4.53%.

(Values after PubChem BioAssay AID485294 (National Center for Advancing Translational Sciences (NCATS), 2010).)
